The exact form of at least one protein or probe is not confirmed. The comparison behind a weaker result is the experiment's own reference, which may not be listed here. At least one verdict was read from the data and is not stated in words by the source. Protein sequences can lack the tags named with them.

For the data set, the target named is T1, StrepHP1021 (HP1021) (Helicobacter pylori 26695) (UniProt O25665).
T1 sequence (looked up, limits assumed): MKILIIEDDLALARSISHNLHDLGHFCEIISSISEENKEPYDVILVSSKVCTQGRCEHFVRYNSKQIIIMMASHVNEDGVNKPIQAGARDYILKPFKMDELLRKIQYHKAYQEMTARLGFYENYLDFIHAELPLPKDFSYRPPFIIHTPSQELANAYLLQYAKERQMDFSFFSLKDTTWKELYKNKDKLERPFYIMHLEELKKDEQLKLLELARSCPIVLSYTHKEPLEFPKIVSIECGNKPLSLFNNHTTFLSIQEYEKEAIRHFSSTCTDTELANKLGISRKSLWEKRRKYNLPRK
The data set can be described thus: EMSA. As to conditions: EMSA: 50 mM Tris-HCl pH 8.0, 100 mM NaCl, 0.2% Triton X-100, 5 nM DNA, 37 C 20 min, 4% PAGE in 0.5x TBE or TB at 20-25 C, recombinant protein, protein details: N-terminal Strep-tag II (WSHPQFEK), label: 5' FAM (P17), probe letters rebuilt from the primers and the genome. For orientation: Mobility shift assays separate free from complexed probe on a gel.

Turning to “ATGATATTTATATGATATTTTTGGGTAATTTAAGATGAATATCGGTAGCGTTTTGAATAAATTTGTTACTACTTTTCACTTTATTACGCCAAATTTTCCCTTATTACAAACAACTTTGAAATAAATGATTTCCATTTAAAAATCAGCCTTATACTTCTAATAGGTTGCCTTGAGCAACACTTTAATACAAGGAGTCTAAATGAAAGACGCAAATTCGAAGCTATTCTTACTCC (double strand) [phyuA]”, the binding result runs as follows: (Zn2+) “binds more weakly”; (air-oxidized (vs TCEP-reduced)) “binds more weakly”.
As to “GGAGTAAGAATAGCTTCGAATGAATAGCGCTGTCAAACTCCCCAGCGCCAGAGTGTTAGAAGTTTTTTGCATACCTTCTCCTTTTTTATTGAGTTGATATAATAATAATGATATTACAATTATTTTAAGATAATAATCTGTCTAAATAAAGAAAAAGAGGCATGAAATGAGTAAAAAATGCAAAGCCCCTTAAAAAGAGCTTAACGAAAGATAAATACAGAAACAGAAATGATGCAGAGAATGATAATGCCTGAATTGAGTGCTTTGAAGTCTTTTTGAACCAATTTGATGATACTATAAGACAAAAAGCCAAAGGCTAAGCCATCGGCAATGGAGAAGGTTAAGGGCATCATCACCACGGTTAAA (double strand) [pgluP]”, the binding result is listed as “binds”. Besides, the binding result (Zn2+) is “binds more weakly”. In addition, the binding result (air-oxidized (vs TCEP-reduced)) was “binds more weakly”.
For “TGCAATAAAACAGGACCTCTAGGGCCGGCCGTAATCACATTGTTGTCATCCCAAACGGGAGCGCCAAAAGCAGTGGTTTGTTTCACATCTTTATTAACCATCTTTTTTCCTTTTATGATCTTAAATCTTCGTAATATGACACTAAGCCGATTACTTGTGGTGATTATCACATAATTTGTTATACAAAGACTAACAAGATTCAATTTCCTTAAAAAATCCTTTTTTTAAGAATGAAAAACCCCCTTAAGTATTTCTATTCGTAACAATTAATGAAAATAAGAAAGATTAAAAACAAAATTTTATTTTTAATCTGGTTTTAATAATAATTATTCGAAGCTATTCTTACTCC (double strand) [pkatA]”, the binding result is listed as “binds”. Besides, under “Zn2+”, the binding result is “binds more weakly”. Moreover, the binding result (air-oxidized (vs TCEP-reduced)) was “binds more weakly”.

These data come from PMC8266642.
